Measured values reported in the supplement of paper PMC12637763.
Where a chain is given by its changes, count along the chain named. This is one part of the list. Env chains of viruses from a treatment-interruption trial, translated from the printed DNA. IC50 / IC80 of two broadly neutralizing antibodies; lower = more sensitive virus; >50 µg/ml means not reached and <0.001 µg/ml is below the lowest dose. No active / inactive call.

B1: HIV-1 Env, rebound clone, placebo arm (protein)
chain: MRVKGIMRNYQHLWKWGIMLLGMLMICNATEKLWVTVYYGVPVWKEATTTLFCASDAKAYDTEAHNVWATHACVPTDPDPQEVVLENVTENFNAWKNDMVEQMHEDIISLWDQSLKPCVKLTPLCVTLECTDNVNCTGTNCTGVKDTNDTNNANLIMEKGEMKNCSFNITTNIRDKVDRQYALFYKLDIVQIEDNNTNTYRLISCNTSVITQACPKVSFEPIPIHYCAPAGFAILKCKDKGFSGKGTCKNVSTVQCTHGIRPVVSTQLLLNGSLAEKEVVIRSNNLTNNAETIIVQLSKTIQINCTRPNNNTRKGIHIGPGRAFYATGEIIGDIRQAHCNISGKDWNEALKWIAGKLKEKFNKTIVFRPPIRGGDPEIVMHTFNCGGEFFYCNTTKLFNSTHNDTHDTAINNTTITLPCKIKQIINMWQEVGKAMYAPPIRGNISCSSNITGLLLIRDGGNTSTNETFRPGGGNMKDNWRSELYKYKVVKIEPLGVAPTKAKRRVVQREKRAMGLGALFLGFLGAAGSTMGAASVTLTVQARQLLSGIVQQQNNLLRAIEAQQHMLQLTVWGIKQLQARVLAVERYLKDQQLLGIWGCSGKLICTTSVPWNTSWSNKSYHQIWENMTWMQWEKEIDNYTGIIYTLIEESQTQQEMNEKELLELDKWASLWNWFSITNWLWYIRIFIMIVGGLIGLRIVFAVLSIVKRVRQGYSPLSFQTLFPTQRGPDRPGEIEEEGGEQDRGRSIRLVDGFLALFWDDLRSLCLFSYHRLRDLLLIVARIVELLGRRGWEILKYWWSLLQYWSQELKNSAISLLNTTAIIVGEGTDRVIETAQRVVRAFLHIPRRIRQGFERALQ
B2: HIV-1 Env, rebound clone, placebo arm (protein)
chain: B1 chain with K15R, N412K, S668G
B3: HIV-1 Env, rebound clone, placebo arm (protein)
chain: MRVKGIMRNYQHLWRWGIMLLGMLMICNATEKLWVTVYYGVPVWKEATTTLFCASDAKAYDTEAHNVWATHACVPTDPDPQEVVLENVTEDFNAWKNDMIEQMHEDIISLWDQSLKPCVKLTPLCVTLECTDNVNCTGTNCTGVKDTNDTNNANLIMEKGEMKNCSFNITTNIRDKVDRQYALFYKLDIVQIEDNNTNTYRLISCNTSVITQACPKISFEPIPIHYCAPAGFAILKCKDKGFSGKGTCKNVSTVQCTHGIRPVVSTQLLLNGSLAEKEVVIRSNNLTNNAETIIVQLSKTIQINCTRPNNNTRKGIHIGPGRAFYATGEIIGDIRQAHCNISRKDWNEALKGIAGKLKEKFNKTIVFRPPIRGGDPEIVMHTFNCGGEFFYCNTTKLFNSTHNGNDTHDTAINNTTITLPCKIKQIINMWQEVGKAMYAPPIRGNISCSSNITGLLLIRDGGNTSTNETFRPGGGNMKDNWRSELYKYKVVKIEPLGVAPTKAKRRVVQREKRAMGLGALFLGFLGAAGSTMGAASVTLTVQARQLLSGIVQQQNNLLRTIEAQQHMLQLTVWGIKQLQARVLAVERYLKDQQLLGIWGCSGKLICTTSVPWNTSWSNKSYHQIWENMTWMQWEKEIDNYTGIIYTLIEESQTQQEMNEKELLELDKWASLWNWFSITNWLWYIRIFIMIVGGLIGLRIVFAVLSIVKRVRQGYSPLSFQTLFPAQRGPDRPGGIEEEGGEQDRGRSIRLVDGFLALFWDDLRSLCLFSYHRLRDLLLIVARIVELLGRRGWEILKYWWSLLQYWSQELKNSAISLLNTTAIIVGEGTDRVIETAQIVVRAFLHIPRRIRQGFERALQ

The binders below were run against antibody 10-1074 (assay: neutralization IC50; higher = virus less sensitive to the antibody).
Experimental: (§1)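 Pseudovirus bearing the Env chain mixed with antibody, from 50 µg/ml in fivefold dilutions, on TZM-bl reporter cells, in duplicate.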

Binder | neutralization IC50
B1 | 0.106 µg/mL
B2 | 0.114 µg/mL
B3 | 0.156 µg/mL

What follows are binders tested against antibody 3BNC117 in the same assay as above.
Experimental: as §1

Binder | neutralization IC50
B1 | 0.091 µg/mL
B2 | 0.075 µg/mL
B3 | 0.067 µg/mL

What follows are binders tested against antibody 10-1074 (assay: neutralization IC80; higher = virus less sensitive to the antibody).
Experimental: as §1

Binder | neutralization IC80
B1 | 0.519 µg/mL
B2 | 0.534 µg/mL
B3 | 0.714 µg/mL

These binders were tested against antibody 3BNC117 in the same assay as above.
Experimental: as §1

Binder | neutralization IC80
B1 | 0.343 µg/mL
B2 | 0.29 µg/mL
B3 | 0.254 µg/mL
